Data set [1] in a line: general procedure: Boc solid-phase peptide synthesis; Boc-amino acid-OCH2-C6H4-Resin; Boc-Lys(ClZ)-PAM-Resin; DCC. The settings on record: whole synthesis.
Data set [2] in a line: general procedure: Boc solid-phase peptide synthesis; Boc-Lys(ClZ)-PAM-Resin; DCC. Particulars: whole synthesis, scale 0.32 mmol.

HELM strings list residues between dots; [ac] is acetyl, [am] amide, other brackets name non-standard units.

Take “PEPTIDE1{G.A.R.A.S.V.L.S.G.G.E.L.D.R.W.E.K.I.R.L.R.P.G.G.K.K.K.Y.K.L.K.H.K}$$$$V2.0”: the “crude HPLC purity” value in data set [1] (analytical HPLC, scale of the general procedure 0.32-0.9 mmol) is recorded as “about 90% pure”. This substance also displayed a crude mass in data set [2] of 580 mg.

The substance “PEPTIDE1{I.V.W.A.S.R.E.L.E.R.F.A.V.N.P.G.L.L.Y}$$$$V2.0” showed a crude mass in data set [1] (scale 0.9 mmol) of 0.33 g.

In data set [1] (scale 0.5 mmol), “PEPTIDE1{A.Q.Q.A.A.A.D.T.G.H.S.S.Q.V.S.Q.N.Y}$$$$V2.0” yielded a crude mass of 0.36 g.
